Reference: patent publication US20030176331A1

B1: scfvMEL-CFR2025 fusion construct (protein)
chain: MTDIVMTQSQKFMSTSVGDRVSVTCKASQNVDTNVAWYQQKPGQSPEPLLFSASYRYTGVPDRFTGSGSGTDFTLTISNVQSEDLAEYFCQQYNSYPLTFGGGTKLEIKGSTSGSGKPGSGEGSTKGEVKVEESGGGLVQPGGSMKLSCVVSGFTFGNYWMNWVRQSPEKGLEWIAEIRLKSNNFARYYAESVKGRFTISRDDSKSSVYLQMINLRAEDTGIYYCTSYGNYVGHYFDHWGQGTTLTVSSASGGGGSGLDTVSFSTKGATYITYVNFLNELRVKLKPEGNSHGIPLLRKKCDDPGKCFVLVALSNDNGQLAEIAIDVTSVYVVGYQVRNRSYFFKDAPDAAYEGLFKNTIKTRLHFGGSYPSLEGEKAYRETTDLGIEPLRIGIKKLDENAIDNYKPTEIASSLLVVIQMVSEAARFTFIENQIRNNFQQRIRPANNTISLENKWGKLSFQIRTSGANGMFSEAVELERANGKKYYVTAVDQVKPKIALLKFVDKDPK

Key:
[1] = molecular target: high molecular weight glycoprotein gp240 on melanoma cells (human) (UniProt Q6UVK1); assay: cell-based or functional assay
[2] = molecular target: high molecular weight glycoprotein gp240 on melanoma cells (human), Q6UVK1; assay: cell-based or functional assay

| Molecule | I.C.50, 72 h growth inhibition of antigen-positive A375M melanoma cells [1] [nM] | I.C.50, 72 h growth inhibition of antigen-positive A375M melanoma cells [2] [nM] |
| --- | --- | --- |
| scfvMEL/rGel fusion construct | 100 | – |
| B1 | – | 100 |
